Source: article PMC7918931 (Viruses, 2021)

Sequences of proteins named here, by UniProt entry; tags and fusion partners are left off. Residues count along the entry.
UniProt Q9HAU4, 297-330: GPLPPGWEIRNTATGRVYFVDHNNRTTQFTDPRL

Biological target: T1, GST-SMURF2 WW domain #3 (UniProt Q9HAU4 297-330)
T1 construct: also called GST-SMURF2-WW3; SMURF2-3
Test: SPR
Settings: both partners purified

In the case of MRRVILPTAPPEYMEAIK [eVP40-WT peptide (MRRVILPTAPPEYMEAI-K-biotin)], the Kd is reported as 78 µM.
